Experimental data: ChEMBL document CHEMBL4837229 (Eur J Med Chem, 2021)

Amino acid sequences for entries named in this document (tags omitted). Residues count along the entry.
UniProt B4URF0, 1-453: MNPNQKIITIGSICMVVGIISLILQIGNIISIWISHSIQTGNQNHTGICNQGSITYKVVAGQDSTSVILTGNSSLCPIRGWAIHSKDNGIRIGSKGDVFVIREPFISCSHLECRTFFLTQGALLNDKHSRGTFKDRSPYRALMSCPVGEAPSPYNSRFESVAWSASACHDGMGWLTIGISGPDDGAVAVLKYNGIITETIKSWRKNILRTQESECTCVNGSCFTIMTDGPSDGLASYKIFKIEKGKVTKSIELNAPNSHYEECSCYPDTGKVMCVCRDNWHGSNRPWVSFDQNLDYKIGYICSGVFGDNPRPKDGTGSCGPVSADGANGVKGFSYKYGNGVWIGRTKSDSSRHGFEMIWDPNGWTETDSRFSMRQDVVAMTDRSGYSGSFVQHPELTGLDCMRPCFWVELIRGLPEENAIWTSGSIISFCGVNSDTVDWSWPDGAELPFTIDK

Molecular target: Neuraminidase (Influenza A virus, UniProt B4URF0)

CCC(CC)O[C@@H]1C=C(C(=O)O)C[C@H](NC(=O)NNC)[C@H]1NC(C)=O
IC50: 29.6 nM
